Laboratory results taken from article PMC8546121 (Nature Communications, 2021).

Biological target: Machupo virus (MACV) L protein (Machupo virus, UniProt Q6IUF8 1-2209)
Assay: pull-down

Row | Binder | binding result
1 | Tacaribe virus (TCRV) Z protein (natural protein) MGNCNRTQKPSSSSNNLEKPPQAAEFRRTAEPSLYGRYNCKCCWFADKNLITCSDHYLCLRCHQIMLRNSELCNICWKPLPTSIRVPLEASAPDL | binds
2 | Chapare virus (CHAV) Z protein (natural protein) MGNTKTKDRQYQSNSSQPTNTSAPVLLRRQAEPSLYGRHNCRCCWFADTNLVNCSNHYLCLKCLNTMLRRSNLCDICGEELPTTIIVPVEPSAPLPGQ | binds
3 | Junin virus (JUNV) Z protein (natural protein) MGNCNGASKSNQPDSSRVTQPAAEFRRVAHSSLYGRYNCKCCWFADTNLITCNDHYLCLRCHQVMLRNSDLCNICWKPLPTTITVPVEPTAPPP | binds
4 | Sabiá virus (SABV) Z protein (natural protein) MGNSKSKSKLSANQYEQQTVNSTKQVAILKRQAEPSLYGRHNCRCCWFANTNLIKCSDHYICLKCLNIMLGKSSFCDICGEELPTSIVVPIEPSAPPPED | binds
